We go through one sequence from publication PMC3688865.

The exact form of at least one protein or probe is not confirmed.

This data set concerns His-FimR (Streptococcus parasanguinis FW213). Kind of data set: EMSA. The note with it: 0.1 mM Mn2+, 5 mM Mg2+, two complexes evident at 40 uM His-FimR, slower one clear at 80 uM; 10 mM Tris pH 7.5, 50 mM KCl, 5 mM MgCl2, 0.1 mM MnCl2, 1 mM DTT, 5% glycerol, 250 ug/ml BSA, 50 ug/ml poly(dI-dC), 40 fmol probe in 20 ul, room temperature 20 min; recombinant protein; label: 3' biotin. On the technique in general: In EMSA bound probe runs differently from free probe, usually more slowly.

For the sequence “TATTTTATAAATTAACTTGACTTAATTTTTTTATTTATGTATATTAATAGTAA (double strand) [pfim probe (pfimbox/S + pfimbox/AS)]”, the binding result was “binds”.
